Here are results for 18 molecules from US20260069689A1, “ANTI-SARS-COV-2-SPIKE GLYCOPROTEIN ANTIBODIES AND ANTIGEN-BINDING FRAGMENTS” (Regeneron, published 2026).

For assay [1], the target named is T1, SARS-CoV2 Spike ecto foldon Trimer expressed with a C-terminal myc-myc-hexahistidine (SARS-CoV-2, UniProt P0DTC2 14-1213).
T1 construct: extracellular domain
The assay can be described thus: SPR Biacore, mAb captured by anti-hFc, 25C.

The target in assay [2] is T1, SARS-CoV2 Spike ecto foldon Trimer …. As to the kind of experiment: SPR Biacore, mAb captured by anti-hFc, 37C. In general terms: In SPR one partner is held on a chip, and binding of the other changes the refractive index at the surface.
The target of assay [3] is SARS-COV-2 RBD extracellular domain expressed with a C-terminal myc-myc-hexahistidine tag (SARS-COV-2 RBD-mmH) (SARS-CoV-2). The assay can be described thus: SPR Biacore, mAb captured on anti-hFc, RBD-mmH analyte, 37 C.

B1: mAb14281 (antibody, V domains shown)
VH: QVQLVQSGADVKKPGASVKVSCKTSGYIFTGYYIHWVRQAPGQGLEWMGWINPNSGGTNSAQKFQGRVTMTRDTSISTVYMELSRLRSDDTAVYYCAKSNSFSVLDYNFDYWGQGTLVTVSS
VL: SSELTQDPAVSVALGQTVRITCQGDSLRSYYASWYQQKPGQAPVLVIYDKNNRPSGIPDRFSGSSSGNTASLTITGAQAEDEADYYCNSRDSSRNHLVVFGGGTKLTVLG
B1: the “Spike trimer.their bound at 50 nM” value in assay [1] was 311 RU; in assay [2], 430 RU.

B2: mAb14294 (antibody, V domains shown)
VH: EVQLVESGGGLVQPGGSLRLSCAASGFTFSNHWMDWVRQAPGKGLVWVSRINSDGSSTDYADSVRGRFTMSRDNAKNTLYLQMSSLRAEDTAVYYCAREGMIFGAVIIPGWYFDLWGRGALVTVSS
VL: EIVLTQSPGTLSLSPGERATLSCRASQSVSSSQLAWYQQKPGQAPRLLIYGASSRATGIPDRFSGSGSGTDFTLTISRLEPEDFAVYYCQQYDSFGQGTKLEIKR
Take B2: the “Spike trimer.their bound at 50 nM” value in assay [1] came to 342 RU; in assay [2], 441 RU.

B3: mAb14230 (antibody, V domains shown)
VH: EVQLVESGGGLIQPGRSLRLSCAASGFTFDDYAMHWVRQAPGKGLEWVSGISWNSVSIDYADSVKGRFTISRDNAKNSLYLQMTSLTVEDTALYYCAKAFGYETLTGSDYFAYWGPGTLVTVSS
VL: EIVLTQSPGTLSLSPGERATLSCRASQTVISTYLAWYQQKPGQSPRLLIYGASSRATGIPDRFSGSGSGTDFTLTISRLEPEDFAVYYCQQYGSSPQLTFGGGTKVEIKR
B3: the entries for the “Spike trimer.their bound at 50 nM” value in assay [1] and in assay [2] were 340 RU and 436 RU, respectively.

B4: mAb14282 (antibody, V domains shown)
VH: QVQLVQSGAEVKKPGASVKVSCKASGYIFTDHYMHWVRQAPGQGLEWMGWINPNSGATNYAQNFQGRVTMTRDTSIITVYMELSRLRSDDTAVYYCARDSSPYMIRYTMDVWGQGTTITVSS
VL: QSALTQPASVSGSPGQSITISCTGTSSDVGSYNLVSWYQQHPGKAPKLMIYELTKRPSGVSNRFSGSKSGNTASLTISGLQAEDEADYYCSSYRGSVTDVVFGGGTKLTVLG
B4: the “Spike trimer.their bound at 50 nM” value in assay [1] is 422 RU; in assay [2] it was 566 RU.

B5: mAb14280 (antibody, V domains shown)
VH: QVQLVQSGAEVKKPGASVRVSCKASGYTFTGNYIHWVRQAPGQGLEWMAWINPNSGGKNYAQKFQGRVTLTRDTSVNTAYMELSRLRSDDTAMYYCARDVNYNILTGPGGLWGQGTLVTVSS
VL: QSALTQPPSASGSPGQSVTISCTGTSSDVGGYNFVSWYQQHPGKAPKLMIYEVSKRPSGVPDRFSGSKSGNTASLTVSGLQAEDEADYYCSSYAGSNNFVFGTGTKVTVLG
For the molecule B5, the “Spike trimer.their bound at 50 nM” value in assay [1] worked out at 459 RU; in assay [2], 650 RU.

B6: mAb14235 (antibody, V domains shown)
VH: QITLKESGPTLVKPTQTLTLTCTFSGFSLNTGGVGVGWIRQPPGNALEWLALIYWDDDKRYNPSLKTRLTISKDTSKNQVVLTMTNMDPVDTATYFCAHLTIAVIVDFWGQGTLVTVSS
VL: QSALTQPASVSGSPGQSITISCTATSSDVGTYNYVSWFQHHPGKAPKLMIYEVTNRPSGVSNRFSGSKSGNTASLTISGLQAEDEADYYCSSYTTTSIVFGGGTKLTVLG
Take B6: the “Spike trimer.their bound at 50 nM” value is 298 RU in assay [1] and 397 RU in assay [2].

B7: mAb14247 (antibody, V domains shown)
VH: QITLKESGPTLVKPTQTLTLTCTFSGFSLSTSAVGVGWIRQPPGKALEWLALIYWDDDKRYSPSLKSRLTITKDTSKNQLVLTMTNVDPVDTATYYCAHHTIQLIFDYWGQGTLVTVSS
VL: QSALTQPASVSGSPGQSITISCTATSSDVGNYNYVSWYQQHPGKAPKLMIYEVSNRPSGVSNRFSGSKSGNTASLTISGLQAEDEADYYCSSYTSSSTPLVFGGGTKLTVLG
Regarding B7, the “Spike trimer.their bound at 50 nM” value in assay [1] was 143 RU; in assay [2] it was 247 RU.

B8: mAb14255 (antibody, V domains shown)
VH: QVQLQESGPGLVKPSETLSLTCTVSGGSISGYYWSWIRQPPGKGLDWIGYIYYRGNTNYNPSLKSRVTISVDTSNNQFSLKLSSVTAADTAVYYCARYGEGYGDASGYHFDYWGQGTLVTVSS
VL: QSALTQPASVSGSPGQSITISCTGTSSDVGSYNLVSWYQQHPGKAPKLMIYEDSKRPSGVANPFSGSKSGNTASLTISGLQAEDEADYYCSSYAGSSTWVFGGGTKLTVLG
Regarding B8, the “Spike trimer.their bound at 50 nM” value in assay [1] worked out at 454 RU; in assay [2], 575 RU.

B9: mAb14285 (antibody, V domains shown)
VH: QVQLVQSGAEVKKPGASVKVSCKASGYTFTGYFIHWVRQAPGQGLEWMGWISPISGGTNYAQKFQGRVTVTRDTSITTAYMELSRLTSDDTAVYHCAREGGTWKGDFDYWGQGTLVTVSS
VL: QSALTQPASVSGSPGQSITISCTGTSSDVESYNLVSWYQQHPGKAPKLMIYEGSKRPSGVSNRFSGSKSGNTASLTISGLQAEDEADYYCSSYAGSSTWVFGGGTKLTVLG
As to B9, the “Spike trimer.their bound at 50 nM” value was determined as 486 RU in assay [1] and 647 RU in assay [2].

B10: mAb15151 (antibody, V domains shown)
VH: QVQLVESGGGVVQPGRSLRLSCAASGFVFNSYGMHWVRQAPGKGLEWVAVLWYEGSKNYYADSVKGRFTISRDNSKNTLYLQMNSLRAEDTAVYYCARHGSGSFFGYYLDYWGQGTLVTVSS
VL: DIQMTQSPSSLSASVGDRVTITCRASHNINDFLNWYQQKPGKAPRLLIYAASSLQSGVPSRFSGSGSGTDFTLTISSLQPEDFATYYCQESYTTPPTFGQGTKLEIKR
Turning to B10, in assay [3], the “RBD monomer bound at 50 nM (RU)” value turned out to be 141 RU.

B11: mAb14257 (antibody, V domains shown)
VH: EVQLVESGGGLVQPGGSLRLSCAASGFTVSRSYMNWVRQAPGKGLEWVSVVFTGGTTKHTDSVKGRFTISRDNSMNTLYLQMNSLRPEDTAVYYCARVAIVETTGAFDIWGQGTMVTVSS
VL: QSVLTQPPSVSGAPGQRVTISCTGTSSNIGADFDVHWYQQFPGTAPKLLIYGHTNRPSGIPDRFSGSKSGTSASLAITGLQAEDEADYYCQSYDSSLSGSVVFGGGTKLTVLG
In the case of B11, the “Spike trimer.their bound at 50 nM” value is 535 RU in assay [1] and 685 RU in assay [2].

B12: mAb14315 (antibody, V domains shown)
VH: QVQLVQSGAEVKKPGSSVKVSCKASGDTFSTYAINWVRQAPGQGLEWMGRFIHIFGTANYAQKFQGRVTITADESTSTAYMELRSLRSEDTAVYYCARDGVDYGDYRPDYWGQGTLVTVSS
VL: EIVLTQSPGTLSLSPGERATLSCRASQSVSSNYLAWYQQKPGQAPRLLIYGASSRATGIPERFSGSGSGTDFTLTISRLEPEDFAVYYCQQYGSSLYTFGQGTKLEIKR
On to B12, for which the “Spike trimer.their bound at 50 nM” value worked out at 335 RU in assay [1] and 457 RU in assay [2].

B13: mAb14289 (antibody, V domains shown)
VH: QVQLVQSGPEVKKPGASVKVSCKASGYTFTSYAISWVRQAPGQGLEWMGWISAYNGNTNYAQKLQGRVTMTTDTFTSTAYMELRSLRSDDTAVYYCAVPADHITFDYWGQGTLVTVSS
VL: EIVLTQSPGTLSLSPGERATLSCRASQSVSSYLAWYQQKPGQAPRLLIHGASSRATGIPDRFSGSGSGTDFTLTISRLEPEDFAVYYCQQYGSSFLTFGGGTKVEIKR
As for B13, the entries for the “Spike trimer.their bound at 50 nM” value in assay [1] and in assay [2] were 345 RU and 456 RU, respectively.

B14: mAb14283 (antibody, V domains shown)
VH: QVQLQESGPGLVKPSGTLSLTCDVSGGSISSNNWWSWVRQRPGKGLQWIGEIYHNENTNYNPSLKSRVIMSIDKSKNQFSLKLTSVTAADTAVYYCARGDVLDWFDPWGQGTLVTVSS
VL: QSALTQPASVSGSPGQSTTISCTGTSSDVGGYNYVSWYQQYPGKAPKLMIYDVTNRPSGVSHRFSGSKSGNTASLTISGLQAEDEADYYCSSYTSSSTVIFGGGTKLTVLG
On to B14, for which the “Spike trimer.their bound at 50 nM” value in assay [1] came out at 352 RU; in assay [2], 470 RU.

B15: mAb14286 (antibody, V domains shown)
VH: QVQLVQSGAEVKKPGASVKVSCKASGYTFTDYFIHWVRQAPGQGLEWMGWINPTSGGTNYAQKFRGRVTMTRDTSISTAYVELSRLRSDDTALYYCARDLPFYSDTKQFDYWGQGTLVTVSS
VL: QSALTQPASVSGYPGQSITISCTGTSSDVGGYNYVSWYQQHPGKAPKLMIFDVSNRPSGVSNRFSGSKSGNTASLTFSGLQAEDEADYYCSSYTSSSTLVFGGGTKLTVLG
Turning to B15, the entries for the “Spike trimer.their bound at 50 nM” value in assay [1] and in assay [2] were 425 RU and 539 RU, respectively.

B16: mAb14234 (antibody, V domains shown)
VH: QVQLVESGGGVVQPGRSLRLSCAASGFTFSSYGIHWVRQAPGKGLEWVAIIWYDGSEKYYADSVKGRFTISRDNSKNTLFLQMNSLEAEDTAVYYCARGPDLLTGYYNYFYYGMDVWGQGTTVTVSS
VL: QSVLTQPPSVSGAPGQRVTISCTGSSSNIGIGYDVHWYQQLPGTVPKLLIYGNTNRPSGVPDRFSGSKSGTSASLAITGLQAEDEADYYCQSYDSSLSSYVFGTGTKVTVLG
For B16, the “Spike trimer.their bound at 50 nM” value in assay [1] was 366 RU; in assay [2], 474 RU.

B17: mAb14313 (antibody, V domains shown)
VH: EVQLVESGGGLVQPGRSLRLSCVASGFTFDDSAMHWVRQPPGKGLEWVSGISWNSGIIGYAESVKGRFIISRDNAKNSLFLHMRGLRPEDTAVYYCARDRLELSYYYYGMDVWGQGTTVTVSS
VL: QSVLTQPPSASGTPGQRVTISCSGSSSNIGSNTVNWYQQFPGTAPRLLIYSNDQRPSGIPDRFSGSKSGTSASLAISGLQSEDEADYYCSTWDDSLNGAVFGGGTQLTVLG
B17: the “Spike trimer.their bound at 50 nM” value in assay [1] came to 462 RU; in assay [2], 611 RU.

B18: mAb14256 (antibody, V domains shown)
VH: QVQLQESGPGLVKPSETLSLTCTVSGGSISSHYWSWIRQPPGKGLEWIGYIYYSGSSNYNPSLKSRVTISVDTSKNQFSLKLNSVTAADTAVYYCARHYDILTGFDWFDPWGQGTLVTVSS
VL: QSVLTQPPSVSGAPGQRVTISCTGSSSNIGTHYDVHWYQQLPGTAPKLLIYGNSNRPSGVPDRFSGSKSGTSASLAITGLQAEDEADYYCQSFDNSLTAPYVFGTGTKVTVLG
Regarding B18, the “Spike trimer.their bound at 50 nM” value in assay [1] was found to be 357 RU; in assay [2], 509 RU.
